Compound potency records, mixed from different reports. Data source: NIAID ChemDB in PubChem.

Shared fields: whole-cell or culture tests; organism: Influenza B virus; cell line: MDCK; endpoint: EC50

ECn is the concentration giving n% inhibition of infection, replication or growth. Two numbers with a dash give a range or band. Conditions beyond the fields shown may differ between rows. An empty or dashed field is not shown.

structure | strain or isolate | read by | result
CCCC(CCC)C(NC(C)=O)C1C(N=C(N)N)CC(C(=O)O)C1O | Panama/45/90 | - | 0.8 µM
Nc1cc(Cl)nc(N)n1 | B/GIFU/2/73 | plaque count | >690 µM
CC(=O)N[C@H]1[C@H]([C@H](O)[C@H](O)CO)OC(C(=O)O)=C[C@@H]1N=C(N)N | B/Harbin/07.94 | - | 0.2 µM
C[C@@]1(O)CC2CCCC1C2N | - | plaque count | >100 µM
Nc1nc2c(ncn2[C@@H]2O[C@H](CO)[C@@H](O)[C@H]2F)c(=O)[nH]1 | B/Singapore/222/79 | plaque count | 2 µM
CC=NC(=N)c1nc(-c2cccc(C)c2)n(COCCO)n1 | Singapore | cytopathic effect | >100 µg/mL
CCC(CC)O[C@@H]1C=C(C(=O)O)C[C@H](N)[C@H]1NC(C)=O | Isolate G42 | plaque count | 0.125 µg/mL
Nc1nccc(NCC2(CO)CC(Cc3ccccc3)C2)n1 | B/GIFU/2/73 | plaque count | 3–12 µM
C=C(N=CC)c1nc(-c2ccc(C)cc2)n(C2O[C@H](CO)[C@@H](O)[C@H](O)[C@H]2O)n1 | Singapore | cytopathic effect | >200 µg/mL
C[C@@H]1C2CCCC(C2N)[C@@H]1c1ccccc1 | - | plaque count | >100 µM
Nc1nc(Cl)cc(NCCC2(CO)CCC2)n1 | B/GIFU/2/73 | plaque count | >120 µM
C=C(N=CC)c1nc(-c2ccc(C)cc2)n([C@@H]2O[C@H](CO)[C@@H](O)[C@H]2O)n1 | Singapore | cytopathic effect | >200 µg/mL
CC(C)C1CC2C(N)C(C1)[C@H](C)[C@@H]2C | - | plaque count | 53 µM
Nc1nc(Cl)cc(NCC2(CO)COC2)n1 | B/GIFU/2/73 | plaque count | >410 µM
N#CNc1nncs1 | B/LEE/40 | plaque count | 1.54 µg/mL
C=C(N=CC)c1nc(-c2cccc(OC)c2)n(C2O[C@H](CO)[C@@H](O)[C@H](O)[C@H]2O)n1 | Singapore | cytopathic effect | >200 µg/mL
CC1=C(C)C2C(N)C1CCC2(C)C | - | plaque count | ~30 µM
C=C(N=CC)c1nc(-c2cccc(C)c2)n(C2O[C@H](CO)[C@@H](O)[C@H](O)[C@H]2O)n1 | Singapore | cytopathic effect | >200 µg/mL
CC1=C(C)C2(C)CC[C@@H](C(C)C)C1C2N | - | plaque count | >50 µM
CC=NC(=N)c1nc(-c2ccc(C)cc2)n(Cc2ccccc2)n1 | Singapore | cytopathic effect | >20 µg/mL
CCNC1C2CCCC1(C)[C@@H](C)[C@H]2C | - | plaque count | >100 µM
C=C(N=CC)c1nc(-c2ccc(OC)cc2)n([C@@H]2O[C@H](CO)[C@@H](O)[C@H]2O)n1 | Singapore | cytopathic effect | >200 µg/mL
CC(=O)N[C@H]1[C@H]([C@H](O)[C@H](O)CO)OC(C(=O)O)=C[C@@H]1N=C(N)N | B/Harbin/07.94 | plaque count | 0.03 µM
C=C(N=CC)c1nc(-c2ccc(OC)cc2)n(C2O[C@H](CO)[C@@H](O)[C@H](O)[C@H]2O)n1 | Singapore | cytopathic effect | >200 µg/mL
CC(=O)N[C@H]1[C@H]([C@H](O)[C@H](O)CO)OC(C(=O)O)=C[C@@H]1N=C(N)N | Beijing/184/93 | - | 0.03 µM

The first 2 rows once more:

CCCC(CCC)C(NC(C)=O)C1C(N=C(N)N)CC(C(=O)O)C1O ; strain or isolate: Panama/45/90 ; result: 0.8 µM
Nc1cc(Cl)nc(N)n1 ; strain or isolate: B/GIFU/2/73 ; read by: plaque count ; result: >690 µM